Anti-infective test results gathered from many reports (values: NIAID ChemDB through PubChem).

Common to all: tests on isolated targets; species: HIV-1; protein: Protease

ICn: concentration for n% inhibition. Conditions beyond the fields shown may differ between rows. An empty or dashed field is not shown.

compound | method | measure | changes | result
COCCNC(=O)[C@@H](NC(=O)[C@H](Cc1ccccc1OC)C[C@H](O)[C@H](Cc1ccccc1)NC(=O)OC(C)(C)C)C(C)C | fluorescence | IC50 |  | 0.015 µM
CSCC[C@H](NC(=O)CCCCCCCCCCCCCCC(=O)N[C@H](C(=O)N[C@@H](CC(C)C)C(=O)N[C@@H](Cc1cc(I)c(Oc2cc(I)c(O)c(I)c2)c(I)c1)C(N)=O)C(C)O)C(=O)N[C@@H](Cc1ccccc1)C(=O)O | HPLC | IC50 |  | 0.41 µM
CON[C@H](C(=O)NC(=O)[C@@H]1CSCN1C(=O)[C@@H](O)[C@H](Cc1ccccc1)NC(=O)[C@@H](NC(=O)[C@H](Cc1c[nH]c2ccccc12)NC(C)=O)C(C)C)C(C)C |  | IC50 |  | 0.012 µM
CCOC(=O)[C@]12CCC(C)(C)CC1C1=CCC3[C@@]4(C)CC[C@H](OC(=O)CCC(=O)O)[C@@](C)(CO[Si](C)(C)C(C)(C)C)C4CC[C@@]3(C)[C@]1(C)CC2 | substrate cleavage / fluorescence | IC50 |  | 46.1 µM
CC(C)C[C@H](NC(=O)[C@@H](NC(=O)CCCCCCCCCCCCCCC(=O)N[C@@H](CC(N)=O)C(=O)N[C@@H](CC1CCCCC1)C(=O)O)C(C)O)C(=O)N[C@@H](Cc1cc(I)c(Oc2cc(I)c(O)c(I)c2)c(I)c1)C(N)=O | HPLC | IC50 |  | 0.24 µM
CC1(C)CC[C@]2(C(=O)O)CC[C@]3(C)C(=CC[C@@H]4[C@@]5(C)CC[C@H](O)C(C)(C)[C@@H]5CC[C@]43C)[C@@H]2C1 | absorbance | IC50 |  | 1 µM
CC(C)C[C@H](NC(=O)CCCCCCCCCCCCCCC(=O)N[C@@H](CC(N)=O)C(=O)N[C@@H](CCc1ccccc1)C(=O)O)C(=O)N[C@@H](CC(C)C)C(=O)N[C@@H](Cc1ccccc1)C(N)=O | HPLC | IC50 |  | 0.51 µM
CC(C)CCCC(C)[C@H]1CCC2C3CC[C@H]4C[C@@H](CCC=C(c5cc(Cl)c(OCc6cccc(B(O)O)c6)c(C(=O)O)c5)c5cc(Cl)c(OCc6cccc(B(O)O)c6)c(C(=O)O)c5)CC[C@]4(C)C3CC[C@@]21C |  | IC50 |  | <0.00025 µM
CC(C)C[C@H](NC(=O)[C@@H](NC(=O)CCCCCCCCCCCCCCC(=O)N[C@@H](CC(N)=O)C(=O)N[C@@H](CCc1ccccc1)C(=O)O)C(C)O)C(=O)N[C@@H](Cc1ccc(-c2ccccc2)cc1)C(N)=O | HPLC | IC50 |  | 0.64 µM
CS(=O)(=O)C[C@H](NC(=O)COc1cccc2ccccc12)C(=O)N[C@@H](Cc1ccccc1)[C@H](O)C(=O)N1CSC[C@H]1C(=O)NC(CO)c1ccccc1 |  | IC50 |  | >0.05 µM
CC(C)[C@H](NC(=O)[C@H](C)NC(=O)Oc1ccccc1)C(=O)NC(=O)[C@H]1N(C(=O)[C@@H](O)[C@H](Cc2ccccc2)NC(=O)[C@@H](NC(=O)[C@H](C)NC(=O)Oc2ccccc2)C(C)C)CSC1(C)C |  | IC50 |  | 0.02 µM
CC(C)C[C@H](NC(=O)[C@@H](NC(=O)CCCCCCCCCCCCCCC(=O)N[C@@H](CC(N)=O)C(=O)N[C@@H](CC1CCCCC1)C(=O)O)C(C)O)C(=O)N[C@@H](Cc1ccc(-c2ccccc2)cc1)C(N)=O | HPLC | IC50 |  | 0.69 µM
CC[C@@H](C)[C@H](NC(=O)C1CCCN1C(=O)[C@@H](O)[C@H](Cc1ccccc1)NC(=O)[C@H](CC(C)C)NC(=O)CCc1ccccc1)C(=O)N[C@H](C(N)=O)C(C)C |  | IC50 |  | <5 µM
C[C@H](CCC(=O)O)[C@H]1CC[C@H]2[C@@H]3CC[C@@H]4C[C@H](O)CC[C@]4(C)[C@H]3CC[C@]12C | absorbance | IC50 |  | 10 µM
CC(C)(C)NC(=O)C1CCCN1C(=O)[C@@H](O)[C@H](Cc1ccccc1)NC(=O)[C@H](CC(N)=O)NC(=O)OC(C)(C)C |  | IC50 |  | >5 µM
COc1cccc(C[C@H](C[C@H](O)[C@H](Cc2ccccc2)NC(=O)OC(C)(C)C)C(=O)N[C@H](C(=O)N[C@@H](Cc2ccccc2)C(=O)N2CCOCC2)C(C)C)c1 | fluorescence | IC50 |  | 0.008 µM
CCOC(=O)[C@]12CCC(C)(C)CC1C1=CCC3[C@@]4(C)CCC(=O)[C@@](C)(CO)C4CC[C@@]3(C)[C@]1(C)CC2 | substrate cleavage / fluorescence | IC50 |  | >100 µM
CC(C)[C@H](NC(=O)[C@H](C)NC(=O)c1ccccc1)C(=O)N[C@@H](Cc1ccccc1)C(O)C(O)[C@H](Cc1ccccc1)NC(=O)[C@@H](NC(=O)[C@H](C)NC(=O)c1ccccc1)C(C)C |  | IC50 |  | 0.017 µM
CC(C)(C)NC(=O)[C@@H]1CCCN1C(=O)[C@@H](O)[C@H](Cc1ccccc1)NC(=O)[C@H](CS(C)(=O)=O)NC(=O)CNc1cccc2ccccc12 |  | IC50 |  | ~0.05 µM
CC(C)[C@H](NC(=O)[C@H](Cc1ccccc1)NOC(=O)c1ccccc1)C(=O)N[C@@H](Cc1ccccc1)[C@@H](O)[C@H](O)[C@H](Cc1ccccc1)NC(=O)[C@@H](NC(=O)[C@H](Cc1ccccc1)NOC(=O)c1ccccc1)C(C)C |  | IC50 |  | 0.01 µM
CC1(C)CC[C@]2(C(=O)O)CC[C@]3(C)C(=CCC4[C@@]5(C)CC[C@H](OC(=O)CCC(=O)O)[C@@](C)(COC(=O)CCC(=O)O)C5CC[C@]43C)C2C1 | substrate cleavage / fluorescence | IC50 |  | 19.3 µM
CC(C)CCCC(C)[C@H]1CCC2C3CC[C@H]4C[C@@H](CCC=C(c5cc(Cl)c(OCc6ccc(B(O)O)cc6)c(C(=O)O)c5)c5cc(Cl)c(OCc6ccc(B(O)O)cc6)c(C(=O)O)c5)CC[C@]4(C)C3CC[C@@]21C |  | IC50 |  | 0.0011 µM
COCCNC(=O)[C@@H](NC(=O)[C@H](Cc1ccc2c(c1)OCO2)C[C@H](O)[C@H](Cc1ccccc1)NC(=O)OC(C)(C)C)C(C)C | fluorescence | IC50 |  | <0.0005 µM
CCOC(=O)[C@]12CCC(C)(C)CC1C1=CCC3[C@@]4(C)CC[C@H](OC(=O)CCC(=O)O)[C@@](C)(COC(=O)CCC(=O)O)C4CC[C@@]3(C)[C@]1(C)CC2 | substrate cleavage / fluorescence | IC50 |  | 25.7 µM
COc1ccc(C[C@H](C[C@H](O)[C@H](Cc2ccccc2)NC(=O)OC(C)(C)C)C(=O)N[C@H](C(=O)N[C@@H](Cc2ccccc2)C(=O)N2CCOCC2)C(C)C)cc1 | fluorescence | IC50 |  | 0.004 µM
CC(C)C[C@H](NC(=O)[C@@H](NC(=O)CCCCCCCCCCCCCCC(=O)N[C@@H](CC(N)=O)C(=O)N[C@@H](CCc1ccccc1)C(=O)O)C(C)C)C(=O)N[C@@H](Cc1ccccc1)C(N)=O | HPLC | IC50 |  | 0.53 µM
CCOCCCNC(=O)[C@@H](NC(=O)[C@H](Cc1ccc(OC)c(OC)c1OC)C[C@H](O)[C@H](Cc1ccccc1)NC(=O)OC(C)(C)C)C(C)C | fluorescence | IC50 |  | 0.002 µM
CSCC[C@H](NC(=O)CCCCCCCCCCCCCCC(=O)N[C@@H](Cc1ccc(N)cc1)C(=O)N[C@@H](Cc1ccccc1)C(=O)O)C(=O)N[C@@H](CC(C)C)C(=O)N[C@@H](Cc1ccccc1)C(N)=O | HPLC | IC50 |  | 0.53 µM
CON[C@H](C(=O)NC(=O)[C@H]1N(C(=O)[C@H](O)[C@H](Cc2ccccc2)NC(=O)[C@@H](NC(=O)[C@H](C)NC(=O)Oc2ccccc2)C(C)C)CSC1(C)C)C(C)C |  | IC50 |  | 0.475 µM
COc1ccccc1C[C@H](C[C@H](O)[C@H](Cc1ccccc1)NC(=O)OC(C)(C)C)C(=O)N[C@H](C(=O)N[C@@H](Cc1ccccc1)C(=O)N1CCOCC1)C(C)C | fluorescence | IC50 |  | 0.011 µM
CON[C@H](C(=O)NC(=O)[C@H]1N(C(=O)[C@@H](O)[C@H](Cc2ccccc2)NC(=O)[C@@H](NC(=O)[C@H](Cc2ccccc2)NC(C)=O)C(C)C)CSC1(C)C)C(C)C |  | IC50 | PR-V82F | 0.016 µM
O=c1oc(-c2ccccc2)cc(O)c1SCCCc1ccccc1 |  | IC50 |  | 1.4 µM
CC(C)(C)OC(=O)N[C@@H](Cc1ccccc1)[C@H](O)C(=O)N[C@@H](CCC(=O)O)C(=O)N[C@@H](Cc1ccccc1)C(=O)O | HPLC | Ki |  | 3.3 µM
CC[C@@H](C)[C@H](NC(=O)[C@@H]1CCCN1C(=O)[C@@H](O)[C@H](CC1CCCCC1)NC(=O)[C@H](CS(C)(=O)=O)NC(=O)CCc1ccccc1)C(=O)N[C@H](C(N)=O)C(C)C |  | IC50 |  | <5 µM
CC(C)[C@H](NC(=O)[C@H](Cc1ccccc1)C[C@H](O)[C@H](Cc1ccccc1)NC(=O)OC(C)(C)C)C(=O)NCCN(C)C | fluorescence | IC50 |  | 0.003 µM
C[C@H]1[C@H](C)CC[C@]2(CO)CC[C@]3(C)C(=CC[C@@H]4[C@@]5(C)CC[C@H](O)C(C)(C)[C@@H]5CC[C@]43C)[C@H]12 | absorbance | IC50 |  | 3.5 µM

For reference, 2 entries again:

| compound | method | measure | changes | result |
|---|---|---|---|---|
| COc1cccc(C[C@H](C[C@H](O)[C@H](Cc2ccccc2)NC(=O)OC(C)(C)C)C(=O)N[C@H](C(=O)N[C@@H](Cc2ccccc2)C(=O)N2CCOCC2)C(C)C)c1 | fluorescence | IC50 |  | 0.008 µM |
| COc1ccccc1C[C@H](C[C@H](O)[C@H](Cc1ccccc1)NC(=O)OC(C)(C)C)C(=O)N[C@H](C(=O)N[C@@H](Cc1ccccc1)C(=O)N1CCOCC1)C(C)C | fluorescence | IC50 |  | 0.011 µM |